Pooled drug test results. Numbers come from NIAID ChemDB, via PubChem.

Shared fields: tests in culture; organism: Hepatitis C virus; read-out: EC50

ECn is the concentration giving n% inhibition of infection, replication or growth. An empty or dashed field is not shown. Conditions beyond the fields shown may differ between rows. a–b is a range or a potency band.

{"structure": "CC1(C)CC(=O)C2=C(C1)Nc1c(O)cccc1N(C(=O)CCC(=O)Nc1ccc(-n3cccc3)cc1)C2c1ccc(OCc2ccccc2)cc1Cl", "strain or isolate": "1b", "method": "luciferase / reporter gene / replicon", "result": "0.47 µM"}
{"structure": "NC(=S)Nc1cccc(OCCCCCCCCc2ccccc2)c1", "cell line": "Ava5-EG(delta4AB)SEAP", "method": "reporter gene / fluorescence", "result": "0.001–1 µM"}
{"structure": "CCCCCCCCOc1ccc(N(C(=O)NCC(=O)O)c2nc(-c3cccnc3)cs2)cc1C(F)(F)F", "result": "<1 µM"}
{"structure": "NC(=S)Nc1cccc(OCCCCCOc2cccc3[nH]ccc23)c1", "cell line": "Ava5-EG(delta4AB)SEAP", "method": "reporter gene / fluorescence", "result": "0.001–1 µM"}
{"structure": "CCCCCOc1ccc(N(C(N)=O)c2nc(-c3cccnc3)c(F)s2)cc1C(F)(F)F", "result": "<1 µM"}
{"structure": "CC(C)C(=O)N1c2cccc(O)c2NC2=C(C(=O)CC(C)(C)C2)[C@H]1c1ccc(OCc2ccccc2)cc1Cl", "strain or isolate": "1b", "method": "luciferase / reporter gene / replicon", "result": "2.48 µM"}
{"structure": "CCCCCCCCOc1ccc(N(C(=O)C(N)=O)c2nc(-c3cccnc3)cs2)cc1C(F)(F)F", "result": "<1 µM"}
{"structure": "COC(=O)N[C@H](C(=O)N1CCCC1c1ncc(-c2ccc(-c3ccc(-c4cnc([C@@H]5CC(C)CN5C(=O)[C@@H](NC(=O)CO)C(C)C)[nH]4)cc3)cc2)[nH]1)C(C)C", "strain or isolate": "1b", "cell line": "ET", "changes": "L28V", "method": "luciferase", "result": "0.0000079 µM"}
{"structure": "NC(=S)Nc1cccc(OCCCCCOc2c(Cl)cc(F)cc2Cl)c1", "cell line": "Ava5-EG(delta4AB)SEAP", "method": "reporter gene / fluorescence", "result": "0.001–1 µM"}
{"structure": "CC1(C)CC(=O)C2=C(C1)Nc1c(O)cccc1N(C(=O)c1ccc(Br)cn1)C2c1ccc(OCc2ccccc2)cc1F", "strain or isolate": "1b", "method": "luciferase / reporter gene / replicon", "result": "6.36 µM"}
{"structure": "NC(=S)Nc1cccc(OCCCCCOc2ccc(-n3ccnc3)cc2)c1", "cell line": "Ava5-EG(delta4AB)SEAP", "method": "reporter gene / fluorescence", "result": "0.001–1 µM"}
{"structure": "CCCCCOc1ccc(N(C(N)=O)c2nc(-c3ccc(F)cc3)cs2)cc1F", "result": "<1 µM"}
{"structure": "COc1c(-c2ccc3cc(NS(C)(=O)=O)ccc3c2)cc(-n2ccc(=O)[nH]c2=O)cc1C(C)(C)C", "strain or isolate": "genotype 1b", "cell line": "Huh7", "changes": "M423T", "method": "luciferase", "result": "0.00064 µM"}
{"structure": "CCCCCOc1ccc(N(C(=O)Nc2ccccc2)c2nc(-c3cccnc3)cs2)cc1C(F)(F)F", "result": "<1 µM"}
{"structure": "CC(=O)N1c2cccc(O)c2NC2=C(C(=O)CC(C)(C)C2)C1c1cn(C)c2ccccc12", "strain or isolate": "1b", "method": "luciferase / reporter gene / replicon", "result": "93.67 µM"}
{"structure": "CCCCCOc1ccc(N(C(=O)C2CC2)c2nc(-c3ccc(C(=O)N(C)C)cn3)cs2)cc1C(F)(F)F", "result": ">10 µM"}
{"structure": "CC(=O)N1c2cccc(O)c2NC2=C(C(=O)CC(C)(C)C2)C1c1c(Cl)cccc1Cl", "strain or isolate": "1b", "method": "luciferase / reporter gene / replicon", "result": "12.17 µM"}
{"structure": "S=C(Nc1cccc(OCCCCCc2ccccc2)c1)N1CCN(CCCc2ccccc2)C1=S", "cell line": "Ava5-EG(delta4AB)SEAP", "method": "reporter gene / fluorescence", "result": "0.001–1 µM"}
{"structure": "C=CCCC(=O)N1c2cccc(O)c2NC2=C(C(=O)CC(C)(C)C2)C1c1ccc(Cl)cc1Cl", "strain or isolate": "1b", "method": "luciferase / reporter gene / replicon", "result": "3.38 µM"}
{"structure": "S=C(Nc1cccnc1)Nc1ccc2c(c1)Cc1cc(Br)ccc1-2", "cell line": "Ava5-EG(delta4AB)SEAP", "method": "reporter gene / fluorescence", "result": "0.001–1 µM"}
{"structure": "CC1(C)CC(=O)C2=C(C1)Nc1c(O)cccc1N(C(=O)NCC(=O)N1CCOCC1)C2c1ccc(OCc2ccccc2)cc1Cl", "strain or isolate": "1b", "method": "luciferase / reporter gene / replicon", "result": "16.46 µM"}
{"structure": "CC(C)COc1ccc(N(C(N)=O)c2nc(-c3ccc(F)cc3)cs2)cc1C(F)(F)F", "result": "<1 µM"}

The first 3 rows once more:

structure | strain or isolate | cell line | changes | method | result
CC1(C)CC(=O)C2=C(C1)Nc1c(O)cccc1N(C(=O)CCC(=O)Nc1ccc(-n3cccc3)cc1)C2c1ccc(OCc2ccccc2)cc1Cl | 1b |  |  | luciferase / reporter gene / replicon | 0.47 µM
NC(=S)Nc1cccc(OCCCCCCCCc2ccccc2)c1 |  | Ava5-EG(delta4AB)SEAP |  | reporter gene / fluorescence | 0.001–1 µM
CCCCCCCCOc1ccc(N(C(=O)NCC(=O)O)c2nc(-c3cccnc3)cs2)cc1C(F)(F)F |  |  |  |  | <1 µM